A mixed list of measured activities; the numbers were collected in NIAID ChemDB.

Common to all: toxicity to cultured cells; cells: MT-4; read-out: CC50

CCn is the concentration with n% toxicity to the cells.

smiles,read by,value
O=S(=O)(c1cccc2cnccc12)N1CCNCC1,,14.8 µg/mL
Nc1cc2c(=O)c(C(=O)O)cn(N)c2cc1N1CCN(c2ccccn2)CC1,MTT,36.46 µM
CC(C)CCC[C@@H](C)[C@H]1CC[C@H]2[C@@H]3CC[C@H]4C[C@@H](NC(=O)CC=C(c5cc(Cl)c(O)c(C(=O)O)c5)c5cc(Cl)c(O)c(C(=O)O)c5)CC[C@]4(C)[C@H]3CC[C@]12C,,>60 µM
CCn1cc(C(=O)O)c(=O)c2cc(F)c(N3CCN(CN4C(=O)/C(=N\c5ncc(Cc6cc(OC)c(OC)c(OC)c6)c(N)n5)c5cc(Br)ccc54)CC3)cc21,,54.7 µg/mL
Cc1cn([C@@H]2O[C@H](CO)[C@H](O)[C@H]2F)c(=O)[nH]c1=O,,>500 µM
O=C(COc1cccc2ccccc12)NN=CCc1ccccc1,MTT,62.68 µg/mL
CCC(CO)n1cc(C(=O)O)c(=O)c2cc(N)c(N3CCN(c4ccccn4)CC3)cc21,MTT,25.25 µM
C#Cc1ccc(Nc2nccc(Oc3c(C)cc(-c4cn(Cc5ccc(C(=O)OC)cc5)nn4)cc3C)n2)cc1,MTT,128 µM
CC1=CN([C@H]2C[C@H](N=[N+]=[N-])[C@@H](CO)O2)Cn2nnnc21,,39 µM
O=C1CC2CCC1C1C(=O)N(CCCCN3CCN(c4ncccn4)CC3)C(=O)C21,MTT,>100 µM
CCN(CC)CCN1C(=O)C2C3C=CC(C3=C(c3ccccc3)c3ccccc3)C2C1=O,MTT,27 µM
C=C1C(n2cc(C)c(=O)[nH]c2=O)C=CC1(CO)CO,,99 µM
CC1(Cc2ccccc2)OS(=O)(=O)C(c2ccccc2)=C1N,,>125 µg/mL
C#Cc1ccc(Nc2nccc(Oc3c(C)cc(-c4cn(CCc5cccs5)nn4)cc3C)n2)cc1,MTT,5.53 µM
O=C(O)CCCCCNC1c2ccc3cc4c5c6c(cc7ccc8cc9cc1c1c9c9c8c7c6c9c6c1c2c3c56)C4,trypan blue,>1500 µM
COC(=O)N[C@H](C(=O)NN(CCC[C@@]1(Cc2ccccc2)C(=O)N(C2c3ccccc3C[C@H]2O)C[C@H]1O)Cc1ccc(-c2cccnc2)cc1)C(C)(C)C,XTT,31 µM
C[C@@]1(n2ccc(N)nc2=O)CO[C@@H](CO)O1,MTT,>100 µM
Cc1cn([C@@H]2O[C@H](CO)C3(OS(=O)(=O)C=C3N)[C@H]2O)c(=O)[nH]c1=O,,>100 µg/mL
N#Cc1ccc(Nc2nc(Oc3ccc(-c4ccc(C#N)cc4)c([N+](=O)[O-])c3)c3sccc3n2)cc1,MTT,70.2 µM
Nc1ccn([C@@H]2O[C@H](CO)C=C2Cl)c(=O)n1,,>500 µM
COc1c(Cl)cc(C(=CCN[C@@H]2CC[C@@]3(C)[C@@H](CC[C@@H]4[C@@H]3CC[C@]3(C)[C@@H]([C@H](C)CCCC(C)C)CC[C@@H]43)C2)c2cc(Cl)c(OC)c(C(=O)O)c2)cc1C(=O)O,,87 µM
COC(=O)N[C@H](C(=O)NN(CC[C@@]1(Cc2ccccc2)C(=O)N(C2c3ccccc3C[C@H]2O)C[C@@H]1O)Cc1ccc(-c2ccccn2)cc1)C(C)(C)C,XTT,31 µM
Cc1cn([C@@H]2O[C@@H]3CN[C@@]4(OCCO)CS(=O)(=O)O[C@@]34[C@H]2O)c(=O)[nH]c1=O,,>250 µM
CNc1cc2c(=O)c(C(=O)O)cn(C)c2cc1N1CCN(c2cccc(C(F)(F)F)c2)CC1,MTT,13.31 µM
CC(C)CCC[C@@H](C)[C@H]1CC[C@H]2[C@@H]3CC[C@H]4C[C@H](NC(=O)C=C(c5cc(Cl)c(O)c(C(=O)O)c5)c5cc(Cl)c(O)c(C(=O)O)c5)CC[C@]4(C)[C@H]3CC[C@]12C,,24.4 µM
CCOC(=O)c1[nH]c2ccc(Cl)cc2c1S(=O)(=O)CC1CCC1,microscopy,>10 µM
N#Cc1ccc(Nc2nc(Oc3ccc(-c4ccc(C#N)cc4)c(C(F)(F)F)c3)c3sccc3n2)cc1,MTT,26.5 µM
CSCC1NCCn2c1nc(C(=O)NCc1ccc(F)cc1)c(O)c2=O,microscopy,>1 µM
C/C=C1\C(=O)NC(=O)N1[C@H]1C[C@H](N=[N+]=[N-])[C@@H](CO)O1,,~100 µM
CCn1cc(C(=O)O)c(=O)c2cc(F)c(N3CCN(c4ccccc4OC)CC3)c(OC(F)F)c21,,2.3 µM
CCN(CC)CC(O)CN1C(=O)C2C3CCC(C(=O)C3)C2C1=O,MTT,>100 µM
NC(=O)c1[nH]c2ccc(Cl)cc2c1S(=O)(=O)CCC(F)(F)F,microscopy,>10 µM
Nc1cc2c(=O)c(C(=O)O)cn(C3CC3)c2nc1N1CCN(c2ccccn2)CC1,MTT,10 µM
COc1ccc(CNC2=CS(=O)(=O)OC2(C)C)c(OC)c1,,>125 µg/mL
Cc1ccccc1N1CCN(CCCCN2C(=O)C3C4CCC(C(=O)C4)C3C2=O)CC1,MTT,>100 µM
CC(C)(C)[Si](C)(C)OC[C@H]1O[C@@H](n2ccc(=O)[nH]c2=O)[C@H](O[Si](C)(C)C(C)(C)C)C12OS(=O)(=O)C=C2N,,3.1 µg/mL
Cc1cn([C@@H]2O[C@@H]3CN[C@@]4(C(N)=O)CS(=O)(=O)O[C@@]34[C@H]2O)c(=O)[nH]c1=O,,>250 µM
C[C@]1(n2ccc(=O)[nH]c2=O)CO[C@@H](CO)O1,MTT,>100 µM
CN1C(=O)[C@]2(C[C@@H]2c2ccccc2)c2cc(Cl)ccc21,MTT,10.24 µg/mL
O=C(NCc1ccc(F)cc1)c1nc2n(c(=O)c1O)CCN(Cc1ccccc1)CC2,microscopy,>1 µM
N#Cc1ccc(Nc2nc(Oc3ccc(-c4ccc(C#N)cc4)cc3Cl)c3sccc3n2)cc1,MTT,33.6 µM
CC1(C)C(N)=CS(=O)(=O)N1Cc1ccccc1,,>125 µg/mL
N#Cc1ccc(Nc2nc(Oc3ccc(-c4ccc(C#N)cc4)c(F)c3F)c3sccc3n2)cc1,MTT,216.9 µM
CCn1cc(C(=O)O)c(=O)c2cc(F)c(N3CCN(CN4C(=O)C(=Nc5ccc(S(=O)(=O)Nc6ncccn6)cc5)c5cc(Cl)ccc54)CC3)cc21,,63.1 µg/mL
N[C@@H](CCCCNC1c2ccc3cc4c5c6c(cc7ccc8cc9cc1c1c9c9c8c7c6c9c6c1c2c3c56)C4)C(=O)O,trypan blue,>850 µM
Nc1ccn([C@H]2OC[C@@H](CO)[C@H]2O)c(=O)n1,,>100 µM
COC(=O)N(C)C1CN(C)CCn2c1nc(C(=O)NCc1ccc(F)cc1)c(O)c2=O,microscopy,>1 µM
Nc1ncnc2c1nc(Br)n2[C@H]1CC[C@@H](CO)O1,,>500 µM
O=C1CC2CCC1C1C(=O)N(CCCCN3CCN(c4ccccc4)CC3)C(=O)C21,MTT,>100 µM
Cc1ccnc2c1NC(=O)c1cccnc1N2C1CC1,MTT,>15 µM
O=c1[nH]cnc2c1ncn2[C@H]1C[C@H](F)[C@@H](CO)O1,,818 µM
Cc1ccc([C@H]2C[C@]23C(=O)N(C)c2ccccc23)cc1,MTT,0.39 µg/mL
C=C1C(n2ccc(=O)[nH]c2=O)C=CC1(CO)CO,,99 µM
COc1ccccc1N1CCN(CC(O)CN2C(=O)C3C4CCC(C(=O)C4)C3C2=O)CC1,MTT,>100 µM
COc1ccccc1N1CCN(c2cc3c(cc2N)c(=O)c(C(=O)O)cn3C2CC2)CC1,MTT,23.77 µM
Cc1cc(C)c(S(=O)(=O)Oc2ccc3cccc(S(=O)(=O)O)c3c2)c(C)c1S(=O)(=O)Oc1ccc2cccc(S(=O)(=O)O)c2c1,,>500 µM
O=C1CC2CCC1C1C(=O)N(CCCN3CCN(c4ncccn4)CC3)C(=O)C21,MTT,>100 µM
Cc1cn([C@]2(C)CO[C@@H](CO)O2)c(=O)[nH]c1=O,MTT,>100 µM
CCn1cc(C(=O)O)c(=O)c2cc(F)c(N3CCN(CN4C(=O)C(=Nc5ccc(S(=O)(=O)Nc6ncnc(OC)c6OC)cc5)c5cc(Cl)ccc54)CC3)cc21,,51.2 µg/mL
Cc1cn([C@@H]2O[C@@H]3CN[C@@]4(O[Si](C)(C)C(C)(C)C)CS(=O)(=O)O[C@@]34[C@H]2O[Si](C)(C)C(C)(C)C)c(=O)[nH]c1=O,,9.1 µM
CCOC(=O)c1[nH]c2ccc(Cl)cc2c1SC1CCC1,microscopy,>10 µM
CC(C)CCC[C@@H](C)[C@H]1CC[C@H]2[C@@H]3CC[C@H]4C[C@@H](CCC=C(c5cc(Cl)c(O)c(C(=O)O)c5)c5cc(Cl)c(O)c(C(=O)O)c5)CC[C@]4(C)[C@H]3CC[C@]12C,,>125 µM
CC(C)NCC(O)CN1C(=O)C2C3CCC(C(=O)C3)C2C1=O,MTT,>100 µM
CN(C)CC1NCCn2c1nc(C(=O)NCc1ccc(F)cc1)c(O)c2=O,microscopy,>1 µM
CC1(C)OS(=O)(=O)C=C1NCCc1ccccc1,,>125 µg/mL
Nc1ncnc2c1ncn2[C@@H]1O[C@H](CO)[C@](O)(C(F)(F)F)[C@H]1O,,66 µM
NC(=O)c1[nH]c2ccc(Cl)cc2c1S(=O)(=O)CC(F)(F)C(F)F,microscopy,>10 µM
O=C(NCc1ccc(F)cc1)c1nc2n(c(=O)c1O)CCNC21CCOCC1,microscopy,>1 µM
O=C(/C=C/c1ccc(O)c(O)c1)O[C@H]1[C@H](O)[C@@H](O)[C@H](Oc2cc(O)c3c(=O)cc(-c4ccc(O)cc4)oc3c2)O[C@@H]1C(=O)O,,>150 µg/mL
COC(=O)N[C@H](C(=O)NN(CC[C@@]1(Cc2ccccc2)C(=O)N(C2c3ccccc3C[C@H]2O)C[C@@H]1O)Cc1ccc(-c2cccnc2)cc1)C(C)(C)C,XTT,31 µM
O=C1C2C3C=CC(C3=C(c3ccccc3)c3ccccc3)C2C(=O)N1CCN1CCCCC1,MTT,38 µM
N#Cc1ccc(Nc2nc(Oc3c(F)cc(-c4ccc(C#N)cc4)cc3F)c3sccc3n2)cc1,MTT,78.6 µM

The first 4 rows once more:

{"smiles": "O=S(=O)(c1cccc2cnccc12)N1CCNCC1", "value": "14.8 µg/mL"}
{"smiles": "Nc1cc2c(=O)c(C(=O)O)cn(N)c2cc1N1CCN(c2ccccn2)CC1", "read by": "MTT", "value": "36.46 µM"}
{"smiles": "CC(C)CCC[C@@H](C)[C@H]1CC[C@H]2[C@@H]3CC[C@H]4C[C@@H](NC(=O)CC=C(c5cc(Cl)c(O)c(C(=O)O)c5)c5cc(Cl)c(O)c(C(=O)O)c5)CC[C@]4(C)[C@H]3CC[C@]12C", "value": ">60 µM"}
{"smiles": "CCn1cc(C(=O)O)c(=O)c2cc(F)c(N3CCN(CN4C(=O)/C(=N\\c5ncc(Cc6cc(OC)c(OC)c(OC)c6)c(N)n5)c5cc(Br)ccc54)CC3)cc21", "value": "54.7 µg/mL"}

Conditions beyond the fields shown may differ between rows. An empty or dashed field is not shown.